Laboratory results from patent EP4162932A1, “ANTIVIRAL HOP CONSTITUENTS” (HHV Hallertauer Hopfenveredelungsgesellschaft mbH, priority 2021, dated 2023).

These compounds were tested on icSARS-CoV-2-mNG. Conditions: CC50 divided by IC50, Caco-2 cells.
Type: cell-based, SARS-CoV-2
With `CC(C)=CCc1c(O)cc2c(c1O)C(=O)C[C@@H](c1ccc(O)cc1)O2` [6-PN, 6-prenylnaringenin] the “therapeutic index (TI)” value was 3.11.
For `CC(C)=CCc1c(O)cc(O)c2c1O[C@H](c1ccc(O)cc1)CC2=O` [8-PN, 8-prenylnaringenin], the “therapeutic index (TI)” value was 2.38.
With `COc1cc(O)c(CC=C(C)C)c2c1C(=O)CC(c1ccc(O)cc1)O2` (stereo not drawn) [IX, isoxanthohumol] the “therapeutic index (TI)” value was 0.97.
